Here are results for 2 substances from article PMC3411833, “The Two PPX-GppA Homologues from Mycobacterium tuberculosis Have Distinct Biochemical Activities” (PLoS ONE, 2012).

The series deals with Nc1ncnc2c1ncn2[C@@H]1O[C@H](COP(=O)(O)OP(=O)(O)OP(=O)(O)O)[C@@H](O)[C@H]1O. The series can be described thus: purified protein. The settings on record: pH 7.4; 37.0 °C.

For orientation: Km means the concentration of substrate that gives half-maximal velocity.

As to “MTB-PPX1 (Rv0496) (Mycobacterium tuberculosis H37Rv)”, the Km was 6.1 ± 0.8 mM. As for “Rv1026 (Mycobacterium tuberculosis H37Rv)”, the figure is 2.6 ± 1.0 mM.
